Assay results taken from publication PMC8268162.

Legend:
BrpR-His6 [1] = test: DNase I footprinting; conditions: 1 uM protein, with or without 50 uM c-di-GMP, 40 mM Tris-Cl pH 7.9, 100 mM KCl, 10 mM MgCl2, 1 mM DTT, 0.1 mM EDTA, 0.1 ug/ul BSA, 0.1 ug poly(dI-dC) in 20 ul, 25 min at 30 C, recombinant protein, protein details: C-terminal His6, label: 6-FAM on reverse primer, probe letters rebuilt from the primers and the genome
BrpR-His6 [2] = test: EMSA; conditions: 40 mM Tris-Cl pH 7.9, 100 mM KCl, 10 mM MgCl2, 1 mM DTT, 0.1 mM EDTA, 0.1 ug/ul BSA, 0.1 ug poly(dI-dC) in 20 ul, 25 min at 30 C, EMSA DNA 5 nM, footprinting DNA 40 nM, recombinant protein, protein details: C-terminal His6, label: 6-FAM on reverse primer, probe letters rebuilt from the primers and the genome
[3] = no c-di-GMP, affinity similar to with c-di-GMP
[4] = 50 uM c-di-GMP, full shift at 200 nM, self-competed

Measured: binding result

ATCCCTCCTCGCATTCTTCGCTCGCGCTCGGTAATATGCCTCTGAGTTTGCAATGTCTCATTGGTGCGACGAATGCTTTGGCGTTGTTACTTATTTGGGTGATCAATGTCGATTATTTGAAATATTAATTTGACAACTTCTTGACAGTGCTGGTGTCAAATTTATGTACATTGCGACCGTTTTTTCTCATCCAAACAATCATTCGTATCAATATCGACTTGTGTTTTTTAACAAGGTCTATGTGTTTCAAGGTTGTAGATAGGTTCTCGTAATGACTTCAAATAAAGCACTAAAGTTTGCCGATGA (double strand) [VV1_2302 upstream region]
binds: BrpR-His6 [1]; single palindromic site of 18-21 bp | BrpR-His6 [2]; 50 uM c-di-GMP, full shift at 100 nM (highest affinity), self-competed | BrpR-His6 [2]; [3]

CATCTTTCTCCCACATCTTCTACGATCTAATCCCGCCGACTAATCACAAAAATATACCATTCCTGATATCAATGTATCACATATGAGATGAATAAATTTTAGATTCACTTTTACTTAATTAGTATTTTAAAAGTGAATAAAACAGCCTTAAAGTTGTCTCTAGCACTTTGCGATTAGCTGAGTGCTTCTTAAAACAAAAATAGTATGAAGTATAAAATTTTAGAATGAGACGTTTCAGTATGGGTTGTAATATGGCAGACACAACGATTGTATTAGTCACTCAACAAAGCCTTCAGAGTGAGAATC (double strand) [brpT upstream region]
binds: BrpR-His6 [1]; single site of 18-21 bp | BrpR-His6 [2]; [4] | BrpR-His6 [2]; [3]

TTCCGTCCTTGTGCTCATCCCATATCCTTTTTAAATCACAGCCAATCAACATCCGTTTGCCATTTATCTAGGTTTGAATTGCGACATCATGGGCGAACCATATATTTCCTTTTCGCTTCCCATTTAGCTCAGTCGTCTCTGTCTTTTCAACCCTTAACAAGACAAATGTTTCGGTGATATTTCGCTTTCTAATATTCACACTTTAAGTGAGCGGTAGCGTATCAATGAGTATGAATAAGACAAACAGGCAACCGGCTCAAACAAGGTTTTTTCCTATAAATAAGACAATCGCTACCGCACT (double strand) [brpL upstream region]
binds: BrpR-His6 [1]; single site of 18-21 bp | BrpR-His6 [2]; [4] | BrpR-His6 [2]; [3]
